Reference: patent publication US20240368655

Target: Concanavalin A (UniProt P02866)
Assay: flow cytometry
Settings: 5' 20 nt DNA primer, remainder FANA (2'-deoxy-2'-fluoroarabino), purified native protein, protein details: Alexa Fluor 647 labeled, label: 5'-BiotinTEG, synthetic backbone

ATTTTATATTCGGGTACGGGATTTATTTATGACCAGAATGATATTTCTGAGCATATCACTCTTGTGCAAACGGCTATAGG [can-4 Man-cmFANA]
binding result (every U in FANA region is C8-alkyne-FANA U click-conjugated to 2-azidoethyl-alpha-D-mannose (21 conjugations)): binds

ATTTTATATTCGGGTACGGGCGTGTGCCTTAGTAATATGGTTTCAACACGTGCCTTTGACCTTGTGCAAACGGCTATAGG [can-3 Man-cmFANA]
binding result (every U in FANA region is C8-alkyne-FANA U click-conjugated to 2-azidoethyl-alpha-D-mannose): binds

ATTTTATATTCGGGTACGGGACAAGGATTCGGGATAGTTCTACGATGGATTGGGGTCGTACTTGTGCAAACGGCTATAGG [can-2 Man-cmFANA]
binding result (every U in FANA region is C8-alkyne-FANA U click-conjugated to 2-azidoethyl-alpha-D-mannose (15-16 conjugations)): binds

For at least one entry, the source does not settle the construct or the ends of the probe.
